Results of unrelated studies side by side (data: NIAID ChemDB).

All rows: cytotoxicity tests; cells: MT-2; endpoint: CC50

CCn is the concentration with n% toxicity to the cells. An empty or dashed field is not shown. Lines come from different laboratories, so protocols vary.

SMILES	method	result
O=C1c2ccccc2C(=O)N1CC(O)CN1CCC(CC2C(=O)N(c3ccccc3)c3ccccc32)CC1	-	78 µM
C[C@H](Cn1cnc2c(N)ncnc21)OCP(=O)(O)O	-	1250 µM
C[C@@H]1O[C@H]2OCCC[C@H]2[C@H]1OC(=O)N[C@@H](Cc1ccccc1)[C@H](O)CN1C[C@H]2CCCC[C@H]2C[C@H]1C(=O)NC(C)(C)C	MTT	36.4 µM
COc1ccc(S(=O)(=O)N(CC(C)C)C[C@@H](O)[C@H](Cc2cc(F)cc(F)c2)NC(=O)O[C@H]2CO[C@H]3OCC[C@H]32)cc1	MTT	29.5 µM
O=C(O[C@@H](C(=O)O)[C@@H](OC(=O)c1cccs1)C(=O)O)c1cccs1	neutral red	>190 µM
C=C(COCCc1ccccc1)[C@@H]1CC[C@]2(C(=O)NC(CC(C)C)C(=O)O)CC[C@]3(C)[C@H](CC[C@@H]4[C@@]5(C)CC[C@H](O)C(C)(C)[C@@H]5CC[C@]43C)[C@@H]12.CBr	XTT	20.8 µM
CC(C)(C)NC(=O)[C@@H]1C[C@@H]2CCCC[C@@H]2CN1C[C@@H](O)[C@H](Cc1ccccc1)NC(=O)[C@H](CC(N)=O)NC(=O)c1ccc2ccccc2n1	neutral red	23 µM
O=c1[nH]cnc2c1ncn2[C@H]1CC[C@@H](CO)O1	-	>1000 µM
CC(C)(C)NC(=O)[C@@H]1C[C@@H]2CCCC[C@@H]2CN1C[C@H](O)[C@H](Cc1ccccc1)NC(=O)[C@H](CC(N)=O)NC(=O)c1ccc2ccccc2n1	MTT	19.1 µM
Cc1c(O)cccc1C(=O)N[C@@H](CSc1ccccc1)[C@H](O)CN1C[C@H]2CCCC[C@H]2C[C@H]1C(=O)NC(C)(C)CO	MTT	92.6 µM
CCCc1cc(=O)oc2c3c(c4c(c12)OC(C)(C)C=C4)O[C@@H](C)[C@H](C)[C@H]3O	-	>1 µg/mL
Cc1cn([C@H]2C[C@H](N=[N+]=[N-])[C@@H](CO)O2)c(=O)[nH]c1=O	-	109.4 µM
Cc1cn([C@H]2C[C@H](N=[N+]=[N-])[C@@H](CO)O2)c(=O)[nH]c1=O	-	20 µM
CN1CC=C(CC2(CC3=CCN(C)CC3)C(=O)N(c3ccccc3)c3cc4ccccc4cc32)CC1	-	89 µM
C[C@H](Cn1cnc2c(N)ncnc21)OCP(=O)(O)O	-	1250 µM
C[C@H](Cn1cnc2c(N)ncnc21)OCP(=O)(O)O	XTT	>50 µM
CCCc1cc(=O)oc2c3c(c4c(c12)OC(C)(C)C=C4)O[C@H](C)[C@@H](C)[C@@H]3O	-	7.3 µM
CCN(CC)C(=O)[C@H](Cc1ccc(O)c(O)c1)[C@@H](Cc1ccc(O)c(O)c1)C(=O)O	neutral red	>93 µM
Nc1ccn([C@H]2CC[C@@H](CO)O2)c(=O)n1	-	60 µg/mL
Nc1nc(NC2CC2)c2ncn([C@H]3C=C[C@@H](CO)C3)c2n1	neutral red	135.6 µM
Nc1nc2c(ncn2[C@H]2CC[C@@H](CO)O2)c(=O)[nH]1	XTT	830 µM
O=C(/C=C/c1ccc(O)c(O)c1)N[C@@H](COC(=O)/C=C/c1ccc(O)c(O)c1)C(=O)O	neutral red	>39 µM
COc1ccc(S(=O)(=O)N(CC(C)C)C[C@@H](O)[C@H](Cc2ccc(F)cc2)NC(=O)O[C@H]2CCO[C@H]3OCC[C@H]32)cc1	MTT	24 µM
Nc1ccn([C@@H]2CC[C@H](CO)O2)c(=O)n1	-	>100 µM
C[C@H]1O[C@@H]2OCCC[C@@H]2[C@@H]1OC(=O)N[C@@H](Cc1ccccc1)[C@H](O)CN1C[C@H]2CCCC[C@H]2C[C@H]1C(=O)NC(C)(C)C	MTT	27.8 µM
O=C1N(c2ccccc2)c2ccccc2C1(CCCc1cccnc1)CCCc1cccnc1	-	35 µM
CC[C@@H](C)[C@@H](N/C=C1\C(=O)C(O)C(C(C)C)=C2C=C(C)C(c3c(C)cc4c(C(C)C)c(O)c(O)c(C=N[C@H](C(=O)O)[C@@H](C)CC)c4c3O)=C(O)C21)C(=O)O.[Na+].[Na+]	MTT	65.62 µM
COc1ccc(S(=O)(=O)N(CC(C)C)C[C@@H](O)[C@H](Cc2ccccc2)NC(=O)O[C@H]2CO[C@@H]3O[C@H]4OCC[C@H]4[C@@H]32)cc1	MTT	38.7 µM
Cc1cc2c(C(C)C)c(C)c(O)c(C=O)c2c(O)c1-c1c(C)cc2c(C(C)C)c(O)c(O)c(C=O)c2c1O	MTT	16.27 µM
CC(C)Nc1cccnc1N1CCN(C(=O)c2cc3cc(N=CN(C)C)ccc3[nH]2)CC1	-	28 µM
Cc1c(O)cccc1C(=O)N[C@@H](CSc1ccccc1)[C@H](O)CN1C[C@H]2CCCC[C@H]2C[C@H]1C(=O)NC(C)(C)C	neutral red	155 µM
C=C(COCCc1ccccc1)[C@@H]1CC[C@]2(C(=O)NC(CC(C)C)C(=O)O)CC[C@]3(C)[C@H](CC[C@@H]4[C@@]5(C)CC[C@H](O)C(C)(C)[C@@H]5CC[C@]43C)[C@@H]12.CF	XTT	24.4 µM
C[C@H](N)C(=O)O.[Na+]	MTT	84.64 µM
CC(C)(C)NC(=O)[C@@H]1C[C@@H]2CCCC[C@@H]2CN1C[C@@H](OC(=O)C(CS)NC(=O)CCCCON)[C@H](Cc1ccccc1)NC(=O)[C@H](CC(N)=O)NC(=O)c1ccc2ccccc2n1	MTT	45 µM
Cc1ccnc2c1NC(=O)c1cccnc1N2C1CC1	-	>100 µM
CCCC[C@@H]1NC(=O)[C@@H](NC(=O)OC(C)(C)C)CCCCOc2ccc(cc2)C[C@@H]([C@H](O)CN(CCC(C)C)S(=O)(=O)c2ccc(NC(C)=O)cc2)NC1=O	trypan blue	8.97 µM
COC(=O)[C@H](C)NP(=O)(OC[C@H]1C/C1=C/n1cnc2c(N)nc(N)nc21)Oc1ccccc1	-	21 µM
O=C(/C=C/c1ccc(O)c(O)c1)O[C@@H]1CC(O)(C(=O)O)C[C@@H](OC(=O)/C=C/c2ccc(O)c(O)c2)C1O	-	>150 µg/mL
C[C@H](Cn1cnc2c(N)ncnc21)OCP(=O)(O)O	-	>100 µM
COC(=O)N[C@H](C(=O)N[C@@H](Cc1ccccc1)[C@@H](O)CN(Cc1ccc(-c2ccccn2)cc1)NC(=O)[C@@H](NC(=O)OC)C(C)(C)C)C(C)(C)C	MTT	26.7 µM
O=C(/C=C/c1ccc(O)c(O)c1)Nc1cc(NC(=O)/C=C/c2ccc(O)c(O)c2)cc(C(=O)O)c1	neutral red	>47 µM
CC(C)(C)c1ccc(C(Cn2cccc(C(F)(F)F)c2=O)NC2Cc3ccccc3C2)cc1	-	>15 µM
CCCC[C@@H]1NC(=O)[C@@H](N)CCCCOc2ccc(cc2)C[C@@H]([C@H](O)CN(CCC(C)C)S(=O)(=O)c2ccc(N)cc2)NC1=O	trypan blue	8.905 µM
CC(C)[C@H](N)C(=O)O.[Na+]	MTT	62.41 µM
CC(C)CN(C[C@@H](O)[C@H](Cc1ccccc1)NC(=O)O[C@H]1CCOC1)S(=O)(=O)c1ccc(N)cc1	neutral red	9 µM
CC#C[C@@]1(CO)C=C[C@H](n2cc(C)c(=O)[nH]c2=O)O1	-	>100 µM
COC(=O)[C@H](C)NP(=O)(OCC1C/C1=C/n1cnc2c(N)ncnc21)Oc1ccccc1	-	0.24 µM
Nc1ncnc2c1ncn2[C@@H]1O[C@H](CO)C[C@@H]1F	XTT	650 µM
Cc1nc(CC2(Cc3csc(C)n3)C(=O)N(c3ccccc3)c3ccccc32)cs1	-	81 µM
O=C1N(Cc2ccc(CO)cc2)[C@H](Cc2ccccc2)[C@H](O)[C@@H](O)[C@@H](Cc2ccccc2)N1Cc1ccc(CO)cc1	-	61.5 µM
CC(C)OC(=O)OCOP(=O)(CO[C@H](C)Cn1cnc2c(N)ncnc21)OCOC(=O)OC(C)C	XTT	>200 µM
CC(C)CN(C[C@@H](O)[C@H](Cc1ccccc1)NC(=O)O[C@H]1CCOC1)S(=O)(=O)c1ccc(N)cc1	-	>100 µM
CCc1c([Se]c2ccccc2)n(COCc2ccccc2)c(=O)[nH]c1=O	-	5 ± 0.5 µM
O=c1c2ccccc2[se]n1-c1ccccc1	MTT	>20 µg/mL
O=C1N(c2ccccc2)c2ccccc2C1(Cc1ccccc1)Cc1ccncc1	-	56 µM
CN(C)C=Nc1ccn([C@H]2C[C@H](F)[C@@H](CO)O2)c(=O)n1	-	>200 µM
C[C@H]1CN2CCC[C@H]3CCCCC[C@@H]4C(=O)[C@@H](C)CN5CCC[C@@H](CCCCC[C@H](C1=O)[C@@H]32)[C@H]45	MTT	178.1 µM
CC1=CC2=C(C(C)C)C(O)C(=O)/C(=C\NC(C)(C)C(=O)O)C2C(O)=C1c1c(C)cc2c(C(C)C)c(O)c(O)c(C=NC(C)(C)C(=O)O)c2c1O.[Na+].[Na+]	MTT	77.35 µM
O=c1[nH]cnc2c1ncn2[C@H]1CC[C@@H](CO)O1	-	>100 µM
C[C@@H]1C[C@@H]([C@H](O)CC2CC(=O)NC(=O)C2)C(=O)[C@@H](C)C1	-	1 µg/mL
Nc1cc(Cl)nc(SCc2ccccc2)n1	-	>10 µM
Cc1cn([C@H]2C[C@H](OS(C)(=O)=O)[C@@H](COP(=O)(OCC(Cl)(Cl)Cl)OCC(Cl)(Cl)Cl)O2)c(=O)[nH]c1=O	-	>200 µM
O=C(NC(=S)Nc1ccc(Br)cn1)c1ccccc1[N+](=O)[O-]	MTT	86.6 µM
CC(=O)O[C@H]1C[C@H](n2cc(C)c(=O)[nH]c2=O)O[C@@H]1COP(=O)(OCC(Cl)(Cl)Cl)OCC(Cl)(Cl)Cl	-	200 µM
Cc1c(O)cccc1C(=O)N[C@@H](CSc1ccccc1)[C@H](O)CN1C[C@H]2CCCC[C@H]2C[C@H]1C(=O)NC(C)(C)CO	-	92.6 µM
CCc1c(Sc2ccccc2)n(COCc2ccccc2)c(=O)[nH]c1=O	-	19 ± 3 µM
Nc1ccn([C@H]2CC[C@@H](CO)O2)c(=O)n1	-	10 µM
Cc1cc2c(C(C)C)c(O)c(O)c(C=O)c2c(O)c1-c1c(C)cc2c(C(C)C)c(O)c(O)c(C=O)c2c1O	MTT	16.27 µM
O=C1N(c2ccccc2)c2ccccc2C1(CCc1cccnc1)CCc1cccnc1	-	99 µM
NC(=O)[C@H](Cc1ccc(O)c(O)c1)[C@@H](Cc1ccc(O)c(O)c1)C(=O)O	neutral red	>123 µM
CC(=O)O[C@H]1C[C@H](n2ccc(=O)[nH]c2=O)O[C@@H]1COP(=O)(OCC(Cl)(Cl)Cl)OCC(Cl)(Cl)Cl	-	>200 µM
Nc1ccn(C[C@@H](CO)OCP(=O)(O)O)c(=O)n1	-	>500 µM
CC(C)(C)c1ccc2c(=O)n(-c3ccc(Cl)c4c(NS(C)(=O)=O)nn(CC(F)(F)F)c34)c([C@H](Cc3cc(F)cc(F)c3)NC(=O)Cn3nc(C(F)F)c4c3C(F)(F)[C@@H]3C[C@H]43)nc2c1	XTT	>1 µM
Cc1cn([C@H]2C=C[C@@H](CO)O2)c(=O)[nH]c1=O	neutral red	564 µM
CN1CC=C(CC2(Cc3ccccc3)C(=O)N(c3ccccc3)c3ccccc32)CC1	-	61 µM
CC(C)(C)NC(=O)[C@@H]1C[C@@H]2CCCC[C@@H]2CN1C[C@@H](O)[C@H](Cc1ccccc1)NC(=O)[C@H](CC(N)=O)NC(=O)c1ccc2ccccc2n1	MTT	16.4 µM

A second listing of 10 rows from above:

SMILES	method	result
Cc1cn([C@H]2C=C[C@@H](CO)O2)c(=O)[nH]c1=O	neutral red	564 µM
COc1ccc(S(=O)(=O)N(CC(C)C)C[C@@H](O)[C@H](Cc2cc(F)cc(F)c2)NC(=O)O[C@H]2CO[C@H]3OCC[C@H]32)cc1	MTT	29.5 µM
CC(C)(C)c1ccc2c(=O)n(-c3ccc(Cl)c4c(NS(C)(=O)=O)nn(CC(F)(F)F)c34)c([C@H](Cc3cc(F)cc(F)c3)NC(=O)Cn3nc(C(F)F)c4c3C(F)(F)[C@@H]3C[C@H]43)nc2c1	XTT	>1 µM
CCCC[C@@H]1NC(=O)[C@@H](NC(=O)OC(C)(C)C)CCCCOc2ccc(cc2)C[C@@H]([C@H](O)CN(CCC(C)C)S(=O)(=O)c2ccc(NC(C)=O)cc2)NC1=O	trypan blue	8.97 µM
O=C(O[C@@H](C(=O)O)[C@@H](OC(=O)c1cccs1)C(=O)O)c1cccs1	neutral red	>190 µM
Cc1nc(CC2(Cc3csc(C)n3)C(=O)N(c3ccccc3)c3ccccc32)cs1	-	81 µM
CC(=O)O[C@H]1C[C@H](n2ccc(=O)[nH]c2=O)O[C@@H]1COP(=O)(OCC(Cl)(Cl)Cl)OCC(Cl)(Cl)Cl	-	>200 µM
C[C@H](Cn1cnc2c(N)ncnc21)OCP(=O)(O)O	-	1250 µM
Nc1nc(NC2CC2)c2ncn([C@H]3C=C[C@@H](CO)C3)c2n1	neutral red	135.6 µM
Cc1c(O)cccc1C(=O)N[C@@H](CSc1ccccc1)[C@H](O)CN1C[C@H]2CCCC[C@H]2C[C@H]1C(=O)NC(C)(C)CO	MTT	92.6 µM